For one series, the target named is CovR (unphosphorylated) (UniProt O87527). Kind of series: EMSA. To be noted: unphosphorylated, low molecular weight complex only, binding unchanged up to 5 uM, 37 C 15 min; recombinant protein; probe letters rebuilt from the primers and the genome.
For series [1], the target named is CovR~P (phosphorylated in vitro with acetyl phosphate) (UniProt O87527). The experiment in a line: EMSA. The note with it: acetyl phosphate, progressively higher molecular weight complexes, high CovR~P needed, 37 C 15 min; recombinant protein; probe letters rebuilt from the primers and the genome.

For at least one entry, the source does not settle the construct or the ends of the probe.

As for “GACTTGTAAACAACTTACTTACATACATTACCTTGTATACCCTTCTTTTTAATTTTCTTGATTTTCTTGTTATTTCGTGAGGTATTTCGTTAAGTCAGTACGACCTATATTAAGAAAAAGTATACCATAAAATGCCTTTCAAATTCTTTCATTAAAATCCAAAAAACAGTCACGATCACGCATTTATTTCTTTTTGTTCATTATTTATAAAACATATTATAAAACGTGACCCAAAAATTGGATTTTTACCCATTTTTTATGCCATTTATGCTCTTTTTGTTTTAAAAGAGGTCTTATTTTATATTTTTTTTATATTTTTTGAACCTAATTTATCTTTTGTCACTAACTTAATTAGATTTTTTACATGCAATTCAATGTTTTTGACTGATTTCAGTTTTTAAGTTTGACTGTTATGGTACAACCATTAAAAATTCTATCATACTTCAGTCAATTTACACCAACATTAGCTCTTGAAAACGTTTCTACGATGTTTTTTATGAACTGGTTAACTTGTCTTTTTTCGTTGGC (double strand) [mga promoter PCR fragment (~500 bp)]”, the binding result (with CovR (unphosphorylated); in series [1]) was “binds” throughout.
